A mixed list of measured activities; the numbers were collected in NIAID ChemDB.

All rows: growth or infection tests; species: Mycobacterium tuberculosis

MIC bound: limit read from a one-dose screen. Inhibition is in % at the dose shown (toxicity tests: loss of growth or viability). A number after MIC or MFC names an inhibition level or a share of isolates. For "inactive" no cut-off is given. An empty or dashed field is not shown. Rows are shuffled and stem from different studies. ECn is the concentration giving n% inhibition of infection, replication or growth.

compound | changes | cell line | endpoint | strain or isolate | tested at | method | result
CC(=O)Oc1ccc(-c2nc3ccccc3[nH]2)cc1 | - | - | MIC | H37Rv | - | radiometric | >500 µM
O=[N+]([O-])c1ccc(CSc2nnc(-c3ccc([N+](=O)[O-])o3)s2)cc1 | - | - | inhibition | H37Rv | 6.25 µg/mL | - | 99%
NNC(=O)C(=O)NN | - | - | inhibition | - | 0.25 µg/mL | - | 60%
Cc1cc(O)c2c(c1)C(=O)c1cc(O)cc(O)c1C2=O | - | - | MIC | - | - | - | 128 µg/mL
OCCN(CCO)C(=S)S | - | - | inhibition | H37Rv | 12.5 µg/mL | BACTEC | 6%
O=[N+]([O-])c1ccnc(NC(=S)Nc2ncc(C3CCC3)o2)c1 | - | - | MIC | MDR clinical isolate | - | agar | 0.3 µM
CCOC(=O)C(=O)Nc1c(N(CC)CC)n2ccccc2nc1=O | - | - | MIC bound | H37Rv | - | resazurin | >6.25 µg/mL
O=C(NCc1ccc(N2CCN(S(=O)(=O)C(F)(F)F)C=N2)c(F)c1)c1c(C(F)F)nc2cc(F)c(Cl)cn12 | - | - | EC50 | - | - | fluorescence | 0.00417 µM
C[C@H](Cc1ccc(O)c(O)c1)[C@@H](C)Cc1ccc(O)c(O)c1 | - | - | MIC | - | - | - | 50 µg/mL
CCS(=O)(=O)c1nnc(-c2ccc([N+](=O)[O-])o2)s1 | - | - | inhibition | H37Rv | 6.25 µg/mL | - | 100%
O=c1ccc(C2Nc3ccccc3S2)c[nH]1 | - | - | MIC | H37Rv | - | - | 1.6 µg/mL
Cc1cc(O)c2c(c1)C(=O)c1cccc(O)c1C2=O | - | - | MIC | - | - | - | >128 µg/mL
c1ccc2c(c1)NC(c1nc3ccccc3[nH]1)S2 | - | - | MIC | H37Rv | - | - | 25 µg/mL
FC(F)(F)c1ccccc1NC(=S)Nc1ncc(C2CCC2)o1 | - | - | MIC | H37Rv | - | agar | 0.14 µM
COc1cc(C=C2C(=O)N=C(C)N2c2cc(C(C)C)c(O)cc2C)ccc1O | - | - | inhibition | H37Rv | 100 µg/mL | - | inactive
COc1nc(N)c(NC2OC[C@@H](O)[C@H](O)[C@H]2O)c(=O)n1C | - | - | inhibition | H37Rv | 12.5 µg/mL | BACTEC | 0%
CC1=NC(=O)C(=Cc2ccoc2)N1c1cc(C(C)C)c(O)cc1C | - | - | inhibition | H37Rv | 100 µg/mL | - | inactive
CCc1nc2ccccc2n1CCCCSc1nc(-c2ccccc2)cs1 | - | - | MIC90 | H37Rv-MA cydC::aph | - | turbidity / fluorescence | 0.62 µM
O=[N+]([O-])c1ccc(NC(=S)Nc2ncc(C3CCC3)o2)cc1 | - | - | MIC | H37Rv | - | agar | 0.31 µM
[O-][n+]1ccccc1C1Nc2ccccc2S1 | - | - | MIC | H37Rv | - | - | 6.25 µg/mL
Oc1cc(O)c2c(c1)O[C@H](c1ccc(O)c(O)c1)[C@@H](O)C2 | - | - | MIC | - | - | - | >128 µg/mL
N#C/C(=C\c1cccc(I)c1)n1nnc2ccccc21 | - | - | MIC90 | ATCC 27294 | - | - | 90.9 µM
c1ccc(-c2ccc(CNc3ccccc3N3CCSCC3)cc2)cc1 | - | - | MIC | 103471 | - | - | >16 µg/mL
CCC1=C(C(=O)NCc2cc(F)c(N3CCN(S(=O)(=O)C(F)(F)F)C=N3)c(F)c2)C2C=C(Cl)C=NC2=N1 | - | - | EC50 | - | - | fluorescence | 0.005 µM
COc1cc(Cn2c(-c3cc(OC)c(OC)c(OC)c3)nc3ccccc32)cc(OC)c1OC | - | - | MIC | H37Rv | - | radiometric | >500 µM
Cc1ccc2c(c1)NC(C)(c1ccccn1)S2 | - | - | MIC | H37Rv | - | - | 1.6 µg/mL
Cc1ccc(C)c(CS(=O)(=O)c2nnc(-c3ccc([N+](=O)[O-])o3)s2)c1 | - | - | inhibition | H37Rv | 6.25 µg/mL | - | 35%
C[C@H]1COC2(CCN(c3nc(=O)c4cc(C(F)(F)F)cc(N)c4s3)CC2)O1 | - | - | MIC | H37Rv | - | resazurin | >1 µM
O=[N+]([O-])c1ccc(-c2nnc(S(=O)(=O)Cc3ccccc3)s2)o1 | - | - | inhibition | H37Rv | 6.25 µg/mL | - | 57%
Oc1c(Cl)c(N=Nc2nc3ccccc3s2)c(O)c2ccccc12 | - | - | MIC | H37Rv | - | BACTEC | 3.13 µg/mL
CC[C@@H](CO)NCCN[C@@H](CC)CO | - | - | MIC90 | - | - | - | 8 µg/mL
O=c1cc(-c2ccccc2)c2cc3c(cc2[nH]1)oc1ccccc13 | - | - | inhibition | H37Rv | 12.5 µg/mL | BACTEC | -23%
NNC(=O)c1ccc(Cl)cc1 | - | - | inhibition | - | 0.125 µg/mL | - | 60%
COc1ccccc1/C=C(\C#N)n1nnc2ccccc21 | - | - | MIC90 | ATCC 27294 | - | - | 80.2 µM
O=c1c[n+]([O-])cc[nH]1 | - | - | inhibition | H37Rv | 12.5 µg/mL | BACTEC | 56%
CCc1nc2ccccc2n1CCCCOc1ccc(C)c(Cl)c1 | - | - | MIC90 | H37Rv-LP | - | turbidity / fluorescence | 0.44 µM
CN(C)c1ccc(-c2nc3ccccc3[nH]2)cc1 | - | - | MIC | H37Rv | - | radiometric | >500 µM
N#C/C(=C\c1cc(F)cc(F)c1)n1nnc2ccccc21 | - | - | MIC90 | ATCC 27294 | - | - | 98.6 µM
CCc1nc2ncc(Cl)cn2c1C(=O)NCc1ccc(N2CCC(S(=O)(=O)C(F)(F)F)C=N2)cc1 | - | - | EC50 | - | - | fluorescence | 0.004 µM
CCN(CC)N=Nc1c(C(N)=O)n[nH]c1C | - | - | inhibition | H37Rv | 12.5 µg/mL | BACTEC | 69%
N[C@@H]1CN(c2c(F)cc3c(=O)c(C(=O)O)cn([C@@H]4C[C@@H]4F)c3c2Cl)CC12CC2 | - | - | MIC90 | - | - | - | ≤0.125 µg/mL
C(=C\c1ccccc1)/CCNc1cccc(N2CCSCC2)c1 | - | - | MIC | 103471 | - | - | >16 µg/mL
CC1(C)S[C@@H]2[C@H](NC(=O)[C@H](N)c3ccc(O)cc3)C(=O)N2[C@H]1C(=O)O | - | - | MIC | H37Rv | - | MTT | 128 µM
CN(C)c1ccc(NC(=S)Nc2ncc(C3CCC3)o2)cc1 | - | - | MIC | H37Rv | - | agar | 5.56 µM
COc1ccccc1C1SC(C)C(=O)N1c1cc(C(C)C)c(O)cc1C | - | - | inhibition | H37Rv | 100 µg/mL | - | inactive
COc1ccc2nc(-c3ccccc3OC)[nH]c2c1 | - | - | MIC | H37Rv | - | radiometric | >500 µM
COc1ccc(-c2oc3cc(O)cc(O)c3c(=O)c2OC)cc1 | - | - | MIC | - | - | - | 50 µg/mL
CCc1nc2sc(C)cn2c1C(=O)NCc1ccc(N2CCN(S(=O)(=O)C(F)(F)F)C=N2)cc1 | - | - | EC50 | - | - | fluorescence | 0.0032 µM
CC[C@]12CN3CCc4c([nH]c5ccccc45)[C@@](C(=O)OC)(c4cc5c(cc4OC)N(C)[C@H]4[C@@](O)(C(=O)OC)[C@H](OC(C)=O)[C@]6(CC)C=CCN7CC[C@]54[C@@H]76)C[C@H](C3)[C@H]1O2 | - | - | inhibition | H37Rv | 12.5 µg/mL | BACTEC | 7%
CCSc1nnc(-c2ccc([N+](=O)[O-])o2)s1 | - | - | inhibition | H37Rv | 6.25 µg/mL | - | 100%
CCN(CC)CCNc1ccc(C)c2sc3ccc(OC)cc3c(=O)c12 | - | VERO | MIC | H37Rv | - | BACTEC | 3.13 µg/mL
CN(C)C/C=C(/c1ccccc1)c1ccc(-c2ccc(Br)cc2)cc1 | - | - | MIC | H37Ra | - | - | 8 µg/mL
C(=C\c1ccccc1)/CCNc1ccccc1N1CCSCC1 | - | - | MIC | 103471 | - | - | >16 µg/mL
O=[N+]([O-])c1ccc(-c2nnc(SCc3ccc(Cl)cc3)s2)o1 | - | - | inhibition | H37Rv | 6.25 µg/mL | - | 20%
COC(=O)C1(C)CCCC2(C)c3ccc(C(C)C)cc3C(OO)CC12 | - | - | inhibition | H37Rv | 12.5 µg/mL | BACTEC | 79%
COC1=NN(c2ccc(CNC(=O)c3c(C(F)F)nc4ccccn34)cc2)CCN1S(=O)(=O)C(F)(F)F | - | - | EC50 | - | - | fluorescence | 0.0832 µM
CCOc1c(N=Nc2ccccc2Cl)c(C)nn1C(=S)S | - | - | MIC bound | H37Rv | - | BACTEC | >12.5 µg/mL
Oc1cc(O)cc(/C=C/c2ccc(O)c(O)c2)c1 | - | - | MIC | - | - | - | 128 µg/mL
Cc1cc(O)c(C(C)C)cc1N1C(=O)C(CC(=O)O)SC1c1cccc(O)c1 | - | - | inhibition | H37Rv | 100 µg/mL | - | inactive
COCCN1CCN(C(=O)c2nc3cc(C(F)(F)F)c(C)c([N+](=O)[O-])c3s2)CC1 | BTZ-resistant (C387S) | - | MIC80 | H37Rv | - | resazurin / absorbance | >32 µg/mL
C[C@H]1COC2(CCN(c3nc(=O)c4cc(C(F)(F)F)ccc4s3)CC2)O1 | - | - | MIC | H37Rv | - | resazurin | >1 µM
O=C(NCc1ccc(N2CCN(S(=O)(=O)C(F)(F)F)C=N2)c(F)c1)c1c(C(F)F)nc2ccc(Cl)cn12 | - | - | EC50 | - | - | fluorescence | 0.00407 µM
C=CCSS/C=C/CS(=O)CC=C | - | - | MIC | PAS-R | - | - | >12.5 µg/mL
Oc1ccc(/C=C/c2cc(O)cc(O)c2)cc1 | - | - | MIC | - | - | - | 128 µg/mL
CCc1nc2ccc(C)cc2n1CCCCOc1ccccc1 | - | - | MIC90 | H37Rv-LP | - | turbidity / fluorescence | 0.34 µM
Clc1ccccc1-c1nc2ccccc2[nH]1 | - | - | MIC | H37Rv | - | radiometric | >500 µM
Cc1ccc(C2(C)NC(=S)N(NC(N)=S)C2=S)cc1 | - | - | inhibition | H37Rv | 12.5 µg/mL | BACTEC | 49%
CO[C@H]1CCC[C@H]2C1=C(C(=O)O)N1C(=O)[C@H]([C@@H](C)O)[C@@H]21 | - | - | MIC | H37Rv | - | resazurin | 5 µM
CCCCCCCCCCCCc1cc2cccc(O)c2c(O)c1C(=O)O | - | - | MIC | - | - | - | >128 µg/mL
COc1ccc(N2C(=O)c3c4c(c5c([nH]c6ncccc65)c3C2=O)CCC(C(C)(C)C)C4)cc1 | - | - | inhibition | H37Rv | 12.5 µg/mL | BACTEC | 31%
C[C@H](O)[C@H]1C(=O)N2C(C(=O)O)=C(S[C@@H]3CN[C@H](C(=O)Nc4cccc(C(=O)O)c4)C3)[C@H](C)[C@H]12 | - | THP-1 | MIC90 | H37Rv | - | luminescence | >50 µM
Clc1cccc2c1NC(c1cccnc1)S2 | - | - | MIC | H37Rv | - | - | 1 µg/mL
CC(=O)Nc1ccc(C(C2=C(O)c3ccccc3C(=O)C2=O)C2=C(O)c3ccccc3C(=O)C2=O)cc1 | - | - | inhibition | H37Rv | 12.8 µg/mL | BACTEC | 11%
O=[N+]([O-])c1cc(C(F)(F)F)cc2nc(C3=NCCO3)sc12 | BTZ-resistant (C387S) | - | MIC80 | H37Rv | - | resazurin / absorbance | >32 µg/mL
CN1c2ccccc2SC1c1cccnc1 | - | - | MIC | H37Rv | - | - | 50 µg/mL
Clc1ccc(CNc2cccc(-n3ccnc3)c2)cc1 | - | - | MIC | 103471 | - | - | 4 µg/mL
CN1c2ccccc2SC1c1ccccn1 | - | - | MIC | H37Rv | - | - | 12.5 µg/mL
S=C(Nc1cc(Cl)ccn1)Nc1ncc(C2CCC2)o1 | - | - | MIC | H37Rv | - | agar | 0.64 µM
C(=C\c1nc2ccccc2[nH]1)/c1ccccc1 | - | - | MIC | H37Rv | - | radiometric | >500 µM
O=C([C@@H]1COC(c2nc3cc(C(F)(F)F)cc([N+](=O)[O-])c3s2)=N1)N1CCCC1 | - | - | MIC80 | H37Rv | - | resazurin / absorbance | 1 µg/mL
O=C1CCC(C(=O)N/N=C/C=N/NC(=O)C2CCC(=O)N2)N1 | - | - | inhibition | H37Rv | 12.5 µg/mL | BACTEC | 8%
CC(C)=CCC[C@@H](C)c1ccc(C)c(O)c1 | - | - | MIC | - | - | - | 16 µg/mL
O=C(N[C@@H](CO)C(=O)N1CCCC1)c1nc2cc(C(F)(F)F)cc([N+](=O)[O-])c2s1 | - | - | MIC80 | H37Rv | - | resazurin / absorbance | 0.25 µg/mL
COc1cc(N=Nc2ccc(C(=O)N(C)C)cc2)c(C)cc1N | - | - | MIC bound | H37Rv | - | BACTEC | >12.5 µg/mL
Cc1c(C(F)(F)F)cc2nc(C3=N[C@H](C(=O)N4CCCC4)CO3)sc2c1[N+](=O)[O-] | - | - | MBC | H37Rv | - | resazurin / absorbance | 2 µg/mL
COc1ccc(C2CC(c3sc(Nc4ccc(C)cc4)nc3C)=NN2)cc1 | - | - | inhibition | H37Rv | 6.25 µg/mL | resazurin | 52%
COc1ccc(C2SC(CC(=O)O)C(=O)N2c2cc(C(C)C)c(O)cc2C)cc1 | - | - | inhibition | H37Rv | 100 µg/mL | - | inactive
COC1C(O)=C2C(=O)OC(C)(O)/C=C/C=C/C=C/C=C\C(c3ccccc3)NC(=O)/C=C/C=C/C=C/C=C/C2(C)C1O | - | - | inhibition | H37Rv | 12.5 µg/mL | BACTEC | 98%
CO[C@H]1/C=C/O[C@@]2(C)Oc3c(C)c(O)c4c(O)c(c(/C=N/N5CCN(C)CC5)c(O)c4c3C2=O)NC(=O)/C(C)=C\C=C\[C@H](C)[C@H](O)[C@@H](C)[C@@H](O)[C@@H](C)[C@H](OC(C)=O)[C@@H]1C | - | - | MIC90 | H37Rv-MA cydC::aph | - | turbidity / fluorescence | 0.031 µM
CN(C)c1ccc(/C=N/NC(=S)NC23CC4CC(CC(C4)C2)C3)c(Cl)c1 | - | - | inhibition | H37Rv | 12.5 µg/mL | BACTEC | -42%
S=C(Nc1cc(Br)cc(Br)n1)Nc1ncc(C2CCC2)o1 | - | - | MIC | MDR clinical isolate | - | agar | 0.23 µM